Measurements reported in US5968514, “Methods for stimulating immune responses in a host through the administration of superantigen peptides derived from human immunodeficiency virus type 1 Nef” (dated 1999).

What was measured:
[1] = target: murine class II MHC molecules on A20 cells (I-A^d and I-E^d)
[2] = target: murine class II MHC molecules on A20 cells (I-A^d and I-E^d); test: competition with ^125 I-MMTV ORF(76-119) on A20 cells
[3] = target: murine class II MHC molecules on A20 cells (I-A^d and I-E^d); test: competition with ^125 I-SEA on A20 cells, peptide at 200 µM

MMTV ORF(76-119)
IC50 [1]: 20 µM

MMTV ORF(76-119) (peptide)
IC50 [2]: 25 µM
percent reduction of ^125 I-SEA binding [3]: 63%

Like-named read-outs stand apart in the source and are kept apart here.
